Test: general procedure: solution-phase peptide synthesis; BOP-Cl for N-methyl amino acids; BOP for the 7+4 segment coupling; EDCI/HOBt; Py
Details: coupling step

| Substance | step yield |
| --- | --- |
| Acetonide-MeLeu(3-OH)-Abu-Sar-MeAla-Val-MeAla-Lys(2Cl-Cbz)-OBn | 67% yield |
| Boc-(D)MeSer(OBn)-MeLeu-Val-MeLeu-Lys(2 Cl-Cbz)-OBn | 71% |
| Boc-Abu-Sar-MeAla-Val-MeAla-Lys(2Cl-Cbz)-OBn | 72% yield |
| Boc-MeLeu-Val-MeLcu-Lys(2Cl-Cbz)-OBn | 69% |
| Boc-Phe-[HEA]-Pro-Ile-Phe-O-allyl | 80% |
| Fmoc-(D)Ala-MeLeu-MeLeu-MeVal-MeLeu(3-OH)-Abu-Sar-MeAla-Val-MeAla-Lys(2Cl- Cbz)-OBn | 59% yield |

Same assay, conditions: late stage modification step

| Substance | step yield |
| --- | --- |
| Boc-(D)MeSer-MeLeu-Val-MeLeu-Lys(2Cl-Cbz)-OBn | 89% yield |
| H-MeLeu(3-OH)-Abu-(D)MeSer(OBn)-MeLeu-Val-MeLeu-Lys(2Cl-Cbz)-OBn | 76% yield |
| H-MeLeu(3-OH)-Abu-Sar-MeAla-Val-MeAla-Lys(2Cl-Cbz)-OBn | 84% yield |
| acetylcyclosporin A | 65% |
